# In publication PMC7105911 (Journal of Molecular Biology, 2011):
# Values joined by “and” are separate entries in the source; they are usually repeats but may differ in a detail not shown here. Equal entries are not always repeated. Where two headings read alike, the source gives them in different places.
# T1: 2F5 peptide LELDKWA (gp41 661-667) (HIV-1 gp41 661-667, HXB2 numbering; …)
# T1 chain: LELDKWA
# T2: 2F5 peptide ELDKWA (gp41 662-667) (HIV-1 gp41 662-667, HXB2 numbering; …)
# T2 chain: ELDKWA
# T3: 2F5 peptide EQELLELDKWASLW (full-length 2F5 epitope, gp41 657-670) (Human immunodeficiency virus type 1, …)
# T3 chain: EQELLELDKWASLW
# B1: 2F5 monoclonal antibody (2F5 IgG) (antibody, V domains shown)
# VH: RITLKESGPPLVKPTQTLTLTCSFSGFSLSDFGVGVGWIRQPPGKALEWLAIIYSDDDKRYSPSLNTRLTITKDTSKNQVVLVMTRVSPVDTATYFCAHRRGPTTLFGVPIARGPVNAMDVWGQGITVTISS
# VL: ALQLTQSPSSLSASVGDRITITCRASQGVTSALAWYRQKPGSPPQLLIYDASSLESGVPSRFSGSGSGTEFTLTISTLRPEDFATYYCQQLHFYPHTFGGGTRVDVR
# Assays:
# Assay in all cases: SPR
# [1] = biological target: T1, 2F5 peptide LELDKWA (gp41 661-667)
# [2] = biological target: T2, 2F5 peptide ELDKWA (gp41 662-667)
# [3] = biological target: T3, 2F5 peptide EQELLELDKWASLW (full-length …)
# [4] = biological target: T3, 2F5 peptide EQELLELDKWASLW (full-length …)
binder,measurement,setting,value
B1,Kd,[1],144 nM and 142 nM
same,koff,[1],0.101 s⁻¹
same,kon,[1],700000 M⁻¹ s⁻¹
same,Kd,[2],2300 nM
same,koff,[2],0.185 s⁻¹
same,kon,[2],80100 M⁻¹ s⁻¹
same,Kd,[3],4.1 nM
same,koff,[3],0.00606 s⁻¹
same,kon,[3],1.45e+06 M⁻¹ s⁻¹
same,Kd,[4],4.5 nM
